Pooled drug test results. Numbers come from NIAID ChemDB, via PubChem.

All rows: whole-cell or culture tests; organism: HIV-1

ECn: concentration that inhibits the pathogen or its effect by n%.

CC(=O)OC(OC(C)=O)c1cc(C)c2c(c1)COP(=O)(OC[C@@H]1C=C[C@H](n3cc(C)c(=O)[nH]c3=O)O1)O2 ; measure: EC50 ; cell line: CEM ; result: 0.16 µM
C1CNCCNCCCN2CCCNCCNCCCN(C1)CC2 ; read by: cytopathic effect / MTT ; measure: EC50 ; cell line: MT-4 ; strain: RF ; result: >250 µg/mL
C=C(C#N)c1cc(C)c(Oc2ccnc(Nc3ccc(CN4CCN(S(C)(=O)=O)CC4)cc3)n2)c(C)c1 ; read by: MTT ; measure: EC50 ; mutations: E138K ; cell line: MT-4 ; strain: IIIB ; result: 0.0075 µM
Nc1ccn([C@H]2CC[C@@H](CO)C2)c(=O)n1 ; read by: RT activity ; measure: EC50 ; cell line: PBMC ; strain: LAV ; result: >100 µM
O=c1ccn([C@H]2C[C@H](CO)CS2)c(=O)[nH]1 ; read by: cytopathic effect ; measure: EC50 ; cell line: MT-4 ; result: >100 µM
Nc1nc2c(ncn2[C@H]2C=C[C@@H](CO)O2)c(=O)[nH]1 ; read by: RT activity ; measure: EC50 ; cell line: PBMC ; strain: LAV ; result: >100 µM
c1cc(CCN2CCCNCCNCCCNCC2)ccc1CCN1CCCNCCNCCCNCC1 ; read by: cytopathic effect / MTT ; measure: EC50 ; mutations: AMD3100-resistant ; cell line: MT-4 ; strain: NL4-3 ; result: >5 µg/mL
CNc1ncnc2c1ncn2[C@H]1C[C@H](CO)CS1 ; read by: cytopathic effect ; measure: EC50 ; cell line: MT-4 ; result: >54.8 µM
CC(C)=CCN1c2cc(Cl)cc3[nH]c(=S)n(c23)C[C@@H]1C ; measure: EC50 ; mutations: RT-D67N K70R T215Y K219Q ; cell line: MT-4 ; result: <0.05 µM
Nc1nc2c(ncn2[C@H]2C[C@H](CO)CS2)c(=O)[nH]1 ; read by: cytopathic effect ; measure: EC50 ; cell line: MT-4 ; result: >100 µM
CCc1cc(NCc2nc3c(Cl)ccc(Cl)c3o2)c(=O)[nH]c1C ; read by: p24 / ELISA ; measure: EC95 ; cell line: MT-4 ; strain: IIIB ; result: 0.05 µM
Nc1ncnc2c1ncn2[C@H]1C[C@H](CO)CS1 ; read by: cytopathic effect ; measure: EC50 ; cell line: MT-4 ; result: >17.6 µM
Cc1cn([C@H]2C[C@H](N=[N+]=[N-])[C@@H](CO)O2)c(=O)[nH]c1=O ; read by: RT activity ; measure: EC50 ; cell line: PBMC ; strain: LAV ; result: 0.002 µM
CC(C)(C)NC(=O)c1ccccc1SC[C@@H](O)[C@H](Cc1ccccc1)NC(=O)[C@H](CC(N)=O)NC(=O)c1ccc2ccccc2n1 ; measure: EC50 ; cell line: CEM ; result: 0.48 µg/mL
Cc1cn([C@H]2C[C@H](N=[N+]=[N-])[C@@H](CO)O2)c(=O)[nH]c1=O ; read by: p24 / ELISA ; measure: EC95 ; cell line: H9 ; strain: IIIB ; result: 20 µM
COc1ccc(CN[C@@H](C(=O)N[C@H]2c3ccccc3C[C@H]2O)[C@H](O)[C@H](Cc2ccccc2)NC(=O)[C@@H](NC(=O)OCc2ccccc2)C(C)(C)C)cc1 ; read by: p24 ; measure: EC50 ; cell line: Primary T4 cells + T4 ; strain: HEM ; result: 0.12 µM
OC[C@@H]1CS[C@@H](n2cnc3c(Cl)ncnc32)C1 ; read by: cytopathic effect ; measure: EC50 ; cell line: MT-4 ; result: >1.35 µM
Cc1c(N)nc([C@H](CC(N)=O)NC[C@H](N)C(N)=O)nc1C(=O)N[C@H](C(=O)N[C@H](C)[C@@H](O)[C@H](C)C(=O)N[C@H](C(=O)NCCc1nc(-c2nc(C(=O)NCCC[S+](C)C)cs2)cs1)[C@@H](C)O)C(O[C@@H]1O[C@@H](CO)[C@@H](O)[C@H](O)[C@@H]1O[C@H]1O[C@H](CO)[C@@H](O)[C@H](OC(N)=O)[C@@H]1O)c1cnc[nH]1 ; read by: p24 ; measure: EC50 ; mutations: RT-M41L M184V T215Y ; cell line: PBMC ; strain: Recombinant 3TC/AZT-resistant ; result: 0.28 µM
NC(=O)P(=O)(O)OCC1O[C@H](n2ccc(N)nc2=O)CS1 ; read by: p24 / ELISA ; measure: EC50 ; cell line: MT-4 ; strain: GKV-4046 ; result: 29.7 µM
Nc1ccn([C@H]2C=C[C@@H](CO)O2)c(=O)n1 ; read by: RT activity ; measure: EC50 ; cell line: PBMC ; strain: LAV ; result: 0.005 µM
Cc1cn([C@H]2C[C@H](N=[N+]=[N-])[C@@H](CO)O2)c(=O)[nH]c1=O ; read by: cytopathic effect / MTT ; measure: EC50 ; cell line: MT-4 ; strain: LAI ; result: 0.014 µM
Cc1cn([C@H]2C[C@H](N=[N+]=[N-])[C@@H](CO)O2)c(=O)[nH]c1=O ; read by: MTT ; measure: EC50 ; cell line: MT-4 ; strain: IIIB ; result: 0.0056 µM
CC[C@H](C)[C@H](NC(=O)Cc1ccccn1)C(=O)N[C@@H](Cc1ccccc1)[C@@H](O)[C@H](O)[C@H](Cc1ccccc1)NC(=O)[C@@H](NC(=O)Cc1ccccn1)[C@@H](C)CC ; read by: plaque count / virus yield ; measure: EC50 ; cell line: MT-2 ; strain: Clinical isolate E ; result: <0.95 µg/mL
c1cc(CN2CCCNCCCNCCNCCC2)cc(CN2CCCNCCCNCCNCCC2)c1 ; read by: cytopathic effect / MTT ; measure: EC50 ; cell line: MT-4 ; strain: AOM ; result: 0.56 µg/mL
Nc1ncnc2c1ncn2C[C@@H](CF)OCP(=O)(O)O ; measure: EC50 ; cell line: MT-2 ; strain: IIIB ; result: >7.04 µM
CNc1ncnc2c1ncn2[C@H]1C=C[C@@H](CO)O1 ; read by: RT activity ; measure: EC50 ; cell line: PBMC ; strain: LAV ; result: 3.43–4.68 µM
Cc1cccc(C)c1OCC(=O)N[C@@H](Cc1ccccc1)[C@H](O)C(=O)N1CSC(C)(C)[C@H]1C(=O)NC(C)(C)C ; read by: cytopathic effect ; measure: EC50 ; cell line: CEM + CEM-SS ; strain: IIIB ; result: >0.2 µM
Clc1cc(CN2CCCNCCNCCCNCC2)c(Cl)cc1CN1CCCNCCNCCCNCC1 ; read by: cytopathic effect / MTT ; measure: EC50 ; cell line: MT-4 ; strain: NL4-3 ; result: 0.036 µg/mL
CC(=O)c1cc(NCc2nc3c(Cl)ccc(Cl)c3o2)c(=O)[nH]c1C ; read by: p24 / ELISA ; measure: EC50 ; cell line: MT-4 ; strain: IIIB ; result: <0.1 µM
c1ccc(-c2cc(CN3CCCNCCNCCCNCC3)ccc2CN2CCCNCCNCCCNCC2)cc1 ; read by: cytopathic effect / MTT ; measure: EC50 ; cell line: MT-4 ; strain: RF ; result: 0.39 µg/mL
O=c1[nH]cnc2c1ncn2[C@H]1CC[C@@H](CO)O1 ; read by: p24 ; measure: EC50 ; cell line: MT-2 ; strain: NL4-3 ; result: 0.31 µM
COC(=O)c1cc(CN2CCCNCCNCCCNCC2)ccc1CN1CCCNCCNCCCNCC1 ; read by: cytopathic effect / MTT ; measure: EC50 ; cell line: MT-4 ; strain: NL4-3 ; result: 0.81 µg/mL
O=C(C(=O)N1CCN(C2=Nc3ccccc3Oc3ccc(Cl)cc32)CC1)c1c[nH]c2c(Br)ccc(F)c12 ; read by: luciferase / reporter gene / single cycle ; measure: EC50 ; cell line: MT-2 ; strain: LAI ; result: >0.5 µM
O=c1ccn([C@@H]2C[C@H](CO)CS2)c(=O)[nH]1 ; read by: cytopathic effect ; measure: EC50 ; cell line: MT-4 ; result: >100 µM
Nc1nc(=O)n(C=C=CCO)cc1F ; read by: cytopathic effect ; measure: EC50 ; cell line: ATH8 ; result: 100 µM
O=C(C(=O)N1CCN(C2=Nc3ccccc3Oc3ccc(Cl)cc32)CC1)c1c[nH]c2ccccc12 ; read by: luciferase / reporter gene / single cycle ; measure: EC50 ; cell line: MT-2 ; strain: LAI ; result: 0.7056 µM
O=C1NC(=O)C(c2ccccc2)(c2ccccc2)N1 ; read by: p24 ; measure: EC50 ; cell line: H9 ; strain: IIIB ; result: <20 µg/mL
O=C(C(=O)N1CCN(C2=Nc3cc(Cl)ccc3Nc3ccccc32)CC1)c1c[nH]c2ccccc12 ; read by: luciferase / reporter gene / single cycle ; measure: EC50 ; cell line: MT-2 ; strain: LAI ; result: >0.5 µM
O=C(O)c1cc(CN2CCCNCCNCCCNCC2)ccc1CN1CCCNCCNCCCNCC1 ; read by: cytopathic effect / MTT ; measure: EC50 ; cell line: MT-4 ; strain: NL4-3 ; result: >250 µg/mL
Cc1cc(C=O)cc2c1OP(=O)(OC[C@@H]1C=C[C@H](n3cc(C)c(=O)[nH]c3=O)O1)OC2 ; measure: EC50 ; cell line: CEM ; result: 0.26 µM

Rows are shuffled and stem from different studies. a–b is a range or a potency band.